Results of unrelated studies side by side (data: NIAID ChemDB).

All rows: growth or infection tests; species: HIV-1; endpoint: inhibition

Inhibition is in % at the dose shown (toxicity tests: loss of growth or viability). An empty or dashed field is not shown. Lines come from different laboratories, so protocols vary.

compound,read by,cells,setting,strain or isolate,dose,result
O=c1[nH]cnc2c1ncn2[C@H]1CC[C@@H](CO)O1,p24,PBMC (resting) + PBMC,-,IIIB,0.25 µM,20%
CCC[C@@]1(CCc2ccccc2)CC(O)=C([C@H](CC)c2cccc(NS(=O)(=O)c3ccc(C(F)(F)F)cn3)c2)C(=O)O1,p24,PBMC,-,Isolate N. Amer 2,0.17 µM,90%
O=C(O)P(=O)(O)O,RT activity,PBL,28 d,IIIB,16 µM,36%
O=CCNC(=O)[C@@H]1CCCN1,p24,H9,-,IIIB,250 µg/mL,78.3%
Nc1ccn([C@H]2CC[C@@H](CO)O2)c(=O)n1,RT activity,PBL (resting) + PBL,-,BZ X4,0.2 µM,89%
NC(N)=NCCC[C@H](NC(=O)[C@@H](N)Cc1ccc(O)cc1)C(=O)NCC(=O)N1CCC[C@H]1C(=O)NCC=O,p24,H9,-,IIIB,25 µg/mL,17%
C/C(=C(/CCOC(=O)C(C)C)SS/C(CCOC(=O)C(C)C)=C(\C)N(C=O)Cc1cnc(C)nc1N)N(C=O)Cc1cnc(C)nc1N,p24,U-937/HIV-1(RF) + U-937,-,RF,50 µM,0%
CCCCCCCCCCCCCCCCOP(=O)(OC[C@H]1OC(O)[C@H](O)[C@@H](O)[C@@H]1O)OC[C@H]1O[C@@H](n2cc(C)c(=O)[nH]c2=O)C[C@@H]1N=[N+]=[N-],RT activity,CEM,15 d,LAV-Bru,1 µM,96%
O=S(=O)(O)c1cc(N=C=S)ccc1CCc1ccc(N=C=S)cc1S(=O)(=O)O,p24,JM,-,GB8,25 µg/mL,57%
CC(C)Nc1cccnc1N1CCN(C(=O)c2cc3ccccc3[nH]2)CC1,MTT,PBMC,-,Seropositive clinical isolate B,1 µM,100%
Cc1cn([C@H]2C[C@H](N=[N+]=[N-])[C@@H](COP(=O)(O)OC[C@H]3OC(O)[C@@H](O)[C@@H](O)[C@@H]3O)O2)c(=O)[nH]c1=O,RT activity,CEM,22 d,LAV-Bru,25 µM,82%
Cc1cn([C@H]2C=C[C@@H](CO)O2)c(=O)[nH]c1=O,RT activity,PBL (resting) + PBL,-,BZ X4,4 µM,36%
Oc1ccc(/C=C/c2cc(O)cc(O)c2)cc1,p24,PBMC,clinical isolate,EJC-X2,10 µM,35%
C[C@@H](C=O)NC(=O)[C@@H]1CCCN1C(=O)CN,syncytia,H9,-,IIIB,250 µg/mL,80%
O=C1N(Cc2ccc(CO)cc2)[C@H](Cc2ccccc2)[C@H](O)[C@@H](O)[C@@H](Cc2ccccc2)N1Cc1ccc(CO)cc1,p24,PBMC,-,R clinical isolate,0.09 µM,90%
c1cc(CN2CCCNCCNCCCNCC2)ccc1CN1CCCNCCNCCCNCC1,p24,PBMC,-,SW26 CLADE C R5,0.5 µM,8%
Nc1nc(NC2CC2)c2ncn([C@H]3C=C[C@@H](CO)C3)c2n1,RT activity,PBL (activated) + PBL,-,BZ X4,4 µM,89%
NCC(=O)N1CCC[C@H]1C(=O)NCC(=O)N[C@H](C=O)CCCN=C(N)N,syncytia,H9,-,IIIB,250 µg/mL,0%
CC(C)[C@H](NC(=O)c1ccc2ccccc2n1)C(=O)N[C@@H](Cc1ccccc1)[C@H](O)CN1CC[C@@H](OCc2ccncc2)C[C@H]1C(=O)NC(C)(C)C,p24,PBMC,-,ddI-resistant,0.029 µM,90%
Cc1cn([C@H]2C[C@H](N=[N+]=[N-])[C@@H](COP(=O)(O)OC[C@H]3OC(O)[C@H](O)[C@@H](O)[C@@H]3O)O2)c(=O)[nH]c1=O,RT activity,CEM,26 d,LAV-Bru,0.2 µM,0%
NC(N)=NCCC[C@H](N)C(=O)NCC(=O)N1CCC[C@H]1C(=O)NCC=O,p24,HUT,-,ELI,250 µg/mL,0%